According to patent publication US8454977B2, “Non-toxic biofilm inhibitor” (priority 2005, dated 2013):

How the values were obtained:
[1] = system: human buccal epithelial cells; experiment: Buccal epithelial cell competition assay with wild-type PAO; settings: for affinity for human buccal epithelial cells: competition with wild-type PAO, immobilized BECs; for Ki: read-out: apparent Ki for inhibiting viable cell binding to human buccal epithelial cells
[2] = Direct binding of peptides to steel; settings: method not stated
[3] = system: biotinylated purified PAK pili; experiment: Competitive inhibition of biotinylated PAK pili binding to stainless steel; settings: peptide 51 nM to 51 μM, high concentrations up to 100 μg/ml
[4] = system: biotinylated viable PAKwt cells; settings: peptide 51 nM to 51 μM, high concentrations up to 100 μg/ml

Ac-A-C-I-S-T-Q-D-P-M-F-T-P-K-G-C-D-N-OH
affinity for human buccal epithelial cells ([1]; listed as PAO(128-144)oxT130l): high affinity | affinity for human buccal epithelial cells ([1]; listed as PAO(128-144)oxT1301): enhanced | Ki [1]: 0.038 µM | binding of peptide to stainless steel [2]: did not bind | effect of peptide on binding of biotinylated PAK pili to stainless steel ([3]; listed as PAO(128-144) T130l): do not inhibit the binding of pili | effect of peptide on binding of biotinylated PAK pili to stainless steel ([3]; listed as PAO(128-144)oxT130l): unable to inhibit | effect of peptide on binding of biotinylated PAK pili to stainless steel ([3]; listed as PAO(128-144)oxT1301): failed to inhibit binding to steel | effect of peptide on binding of biotinylated PAKwt cells to stainless steel [4]: unable to inhibit

Ac-A-C-K-S-T-Q-D-P-M-F-T-P-K-G-C-D-N-OH
Ki [1]: 12 µM | effect of peptide on binding of biotinylated PAK pili to stainless steel [3]: inhibit the binding
